Our source for the MIC values is patent US6689782B2, “Fungal efflux pump inhibitors” (priority 2001, dated 2004).

The subject of the assay is Candida albicans YEM15 (over-expressing the CDR1 and CDR2 pumps). The assay can be described thus: checkerboard assay / broth microdilution, potentiation of fluconazole vs. C. albicans. To be noted: 48 h.
As to `CC[C@H](N)C(=O)N1CCN(n2c(C(C)N(C(=O)Nc3ccc(F)cc3)c3ccc(OC)cc3OC)nc3cc(F)c(F)cc3c2=O)CC1` (stereo partly shown) [Compound 280], the MIC is more than 32 µg/mL.
As for `CCOc1ccccc1N(C(=O)Nc1ccc(F)cc1)C(C)c1nc2ccccc2c(=O)n1N1CCN(C(=O)C2CC2)CC1` (stereo not shown) [Compound 353], the minimal inhibitory concentration (MIC) is more than 32 µg/mL.
Regarding `COC(=O)NC1CCN(C(=O)N2CCN(n3c(C(C)N(C(=O)Nc4ccc(F)cc4)c4ccc(OCC5CC5)cc4OCC4CC4)nc4ccccc4c3=O)CC2)C1` (racemic) [Compound 343], the MIC was more than 32 µg/mL.
Turning to `COc1ccc(N(C(=O)Nc2ccc(OC(F)F)cc2)C(C)c2nc3cc(F)ccc3c(=O)n2N2CCN(C)CC2)c(OC)c1` (stereo not shown) [Compound 218], the MIC was more than 32 µg/mL.
As to `COc1ccc(N(C(=O)Nc2ccc(F)cc2)C(C)c2nc3ccc(Cl)cc3c(=O)n2N2CCN(C(=O)C(C)(C)NC(=O)OC(C)(C)C)CC2)c(OC)c1` (racemic) [Compound 339], the MIC is more than 32 µg/mL.
As to `COc1ccc(N(C(=O)Nc2ccc(F)cc2)C(C)c2nc3ccccc3c(=O)n2N2CCN(C(=O)c3cc(C)on3)CC2)c(OC)c1` (stereo not shown) [Compound 252], the minimum inhibitory concentration (MIC) was more than 32 µg/mL.
Then `COC(=O)NC(C)(C)C(=O)N1CCN(n2c([C@H](C)N(C(=O)Nc3ccc(F)cc3)c3ccc(OC)cc3OC)nc3ccccc3c2=O)CC1` [Compound 373], with more than 32 µg/mL; and `COC(=O)N[C@H](C(=O)N1CCN(n2c([C@H](C)N(C(=O)Nc3ccc(F)cc3)c3ccc(OC)cc3OC)nc3cc(Cl)ccc3c2=O)CC1)[C@@H](C)O` [Compound 359], with more than 32 µg/mL; and `COc1ccc(N(C(=O)Nc2ccc(C#N)cc2)C(C)c2nc3cc(F)ccc3c(=O)n2N2CCN(C)CC2)c(OC)c1` (stereo not shown) [Compound 217], with more than 32 µg/mL.
In the case of `COc1ccc(N(C(=O)Nc2cccc(F)c2)C(C)c2nc3cc(F)c(F)cc3c(=O)n2N2CCN(C)CC2)c(OC)c1` (stereo not shown) [Compound 221], the MIC was more than 32 µg/mL.
Turning to `COc1ccc(N(C(=O)Nc2ccc(F)cc2)C(C)c2nc3ccccc3c(=O)n2N2CCN(C(=O)c3ccno3)CC2)c(OC)c1` (stereo not shown) [Compound 257], the minimal inhibitory concentration (MIC) is more than 32 µg/mL.
Then `COc1ccc(N(C(=O)Nc2ccc(F)cc2)C(C)c2nc3ccccc3c(=O)n2N2CCN(C=O)CC2)c(OC)c1` (stereo not shown) [Compound 230], with more than 32 µg/mL; and `COC(=O)N[C@@H](C)C(=O)N1CCN(n2c([C@H](C)N(C(=O)Nc3ccc(F)cc3)c3ccc(OC)cc3OC)nc3ccc(F)cc3c2=O)CC1` [Compound 365], with more than 32 µg/mL.
The figure for `CC(c1nc2ccccc2c(=O)n1N1CCN(C(=O)C2CC2)CC1)N(C(=O)Nc1ccc(F)cc1)c1ccccc1OCC1CC1` (racemic) [Compound 352] is more than 32 µg/mL; for `COC(=O)N[C@H](C(=O)N1CCN(n2c([C@H](C)N(C(=O)Nc3ccc(F)cc3)c3ccc(OC)cc3OC)nc3ccc(Cl)cc3c2=O)CC1)[C@@H](C)O` [Compound 358] it is more than 32 µg/mL; for `COC(=O)N1CCC[C@H]1C(=O)N1CCN(n2c([C@H](C)N(C(=O)Nc3ccc(F)cc3)c3ccc(OC)cc3OC)nc3ccccc3c2=O)CC1` [Compound 356] it is more than 32 µg/mL.
Regarding `COc1ccc(N(C(=O)Nc2ccc(F)cc2)[C@@H](C)c2nc3cc(Cl)ccc3c(=O)n2N2CCN(C(=O)[C@@H]3CCCN3)CC2)c(OC)c1` [Compound 357], the minimal inhibitory concentration (MIC) was more than 32 µg/mL.
In the case of `COc1ccc(N(C(=O)Nc2ccc(F)cc2)C(C)c2nc3ccccc3c(=O)n2N2CCN(C(=O)C(C)(C)NC(=O)OC(C)(C)C)CC2)c(OC)c1` (racemic) [Compound 341], the MIC is more than 32 µg/mL.
The figure for `COC(=O)N[C@@H](C)C(=O)N1CCN(n2c([C@H](C)N(C(=O)Nc3ccc(F)cc3)c3ccc(OC)cc3OC)nc3cc(Cl)ccc3c2=O)CC1` [Compound 366] is more than 32 µg/mL.
Consider `COC(=O)NC(C)(C)C(=O)N1CCN(n2c([C@H](C)N(C(=O)Nc3ccc(F)cc3)c3ccc(OC)cc3OC)nc3ccc(F)cc3c2=O)CC1` [Compound 370], for which the MIC was more than 32 µg/mL.
`COC(=O)NC1CCN(C(=O)N2CCN(n3c(C(C)N(C(=O)Nc4ccc(F)cc4)c4cccc(-n5nccn5)c4)nc4ccccc4c3=O)CC2)C1` (racemic) [Compound 342]: the MIC is more than 32 µg/mL.
For the molecule `COC(=O)NC(C)(C)C(=O)N1CCN(n2c([C@H](C)N(C(=O)Nc3ccc(F)cc3)c3ccc(OC)cc3OC)nc3cc(Cl)ccc3c2=O)CC1` [Compound 371], the MIC was more than 32 µg/mL.
Take `COc1ccc(N(C(=O)Nc2ccc3c(c2)OCO3)C(C)c2nc3cc(F)ccc3c(=O)n2N2CCN(C)CC2)c(OC)c1` (stereo not shown) [Compound 219]: the MIC is more than 32 µg/mL.
In the case of `COc1ccc(N(C(=O)Nc2ccc(C#N)cc2)C(C)c2nc3cc(F)c(F)cc3c(=O)n2N2CCN(C)CC2)c(OC)c1` (stereo not shown) [Compound 226], the MIC is more than 32 µg/mL.
As for `COc1ccc(N(C(=O)Nc2ccc(F)cc2)[C@@H](C)c2nc3cc(Cl)ccc3c(=O)n2N2CCN(C(=O)[C@H](C)N)CC2)c(OC)c1` [Compound 362], the MIC is more than 32 µg/mL.
`COc1ccc(N(C(=O)Nc2ccc(F)cc2)[C@@H](C)c2nc3ccc(Cl)cc3c(=O)n2N2CCN(C(=O)C(C)(C)N)CC2)c(OC)c1` [Compound 369]: the minimum inhibitory concentration (MIC) is more than 32 µg/mL.
Take `COc1ccc(N(C(=O)Nc2ccc(F)cc2)C(C)c2nc3cc(Cl)ccc3c(=O)n2N2CCN(C(=O)C(C)(C)NC(=O)OC(C)(C)C)CC2)c(OC)c1` (racemic) [Compound 340]: the MIC is more than 32 µg/mL.
As for `COC(=O)N[C@@H](C)C(=O)N1CCN(n2c(C(C)N(C(=O)Nc3ccc(F)cc3)c3cccc(-n4nccn4)c3)nc3ccccc3c2=O)CC1` (mixture of isomers) [Compound 349], the MIC was more than 32 µg/mL.
The figure for `COC(=O)N[C@@H](C)C(=O)N1CCN(n2c([C@H](C)N(C(=O)Nc3ccc(F)cc3)c3ccc(OC)cc3OC)nc3ccc(Cl)cc3c2=O)CC1` [Compound 364] is more than 32 µg/mL.
In the case of `COC(=O)NC(C)(C)C(=O)N1CCN(n2c([C@H](C)N(C(=O)Nc3ccc(F)cc3)c3ccc(OC)cc3OC)nc3cc(F)ccc3c2=O)CC1` [Compound 372], the MIC is more than 32 µg/mL.
Take `COc1cc(F)ccc1N(C(=O)Nc1ccc(F)cc1)C(C)c1nc2ccccc2c(=O)n1N1CCN(C(=O)C2CC2)CC1` (stereo not shown) [Compound 350]: the MIC was more than 32 µg/mL.
As to `COc1ccc(N(C(=O)Nc2ccc(F)cc2)[C@@H](C)c2nc3ccccc3c(=O)n2N2CCN(C(=O)[C@@H](NC(=O)OC(C)(C)C)[C@H](C)O)CC2)c(OC)c1` [Compound 360], the MIC was more than 32 µg/mL.
With `COc1ccc(N(C(=O)Nc2ccc(F)cc2)C(C)c2nc3cc(F)ccc3c(=O)n2N2CCN(C(=O)[C@H](C)N)CC2)c(OC)c1` (stereo partly shown) [Compound 305], the MIC was more than 32 µg/mL.
Regarding `COc1ccc(N(C(=O)Nc2ccc(F)cc2)C(C)c2nc3cc(F)c(F)cc3c(=O)n2N2CCN(C(=O)C(C)(C)NC(=O)OC(C)(C)C)CC2)c(OC)c1` (racemic) [Compound 338], the MIC was more than 32 µg/mL.
For the molecule `COc1ccc(N(C(=O)Nc2ccc(F)cc2)[C@@H](C)c2nc3ccccc3c(=O)n2N2CCN(c3nncs3)CC2)c(OC)c1` [Compound 355], the minimal inhibitory concentration (MIC) is more than 32 µg/mL.
Take `COC(=O)NC(C)(C)C(=O)N1CCN(n2c(C(C)N(C(=O)Nc3ccc(F)cc3)c3ccc(OC)cc3OC)nc3ccccc3c2=O)CC1` (racemic) [Compound 337]: the MIC is more than 32 µg/mL.
Regarding `COC(=O)N[C@@H](C)C(=O)N1CCN(n2c([C@H](C)N(C(=O)Nc3ccc(F)cc3)c3ccc(OC)cc3OC)nc3cc(F)ccc3c2=O)CC1` [Compound 367], the MIC is more than 32 µg/mL.

The term MIC denotes the least concentration at which growth counts as inhibited.
